Results of unrelated studies side by side (data: NIAID ChemDB).

Shared fields: growth or infection tests

ECn: concentration that inhibits the pathogen or its effect by n%. MIC50, MIC90 and the like: level of inhibition, or share of isolates inhibited. Rows are shuffled and stem from different studies. An empty or dashed field is not shown. Inhibition is in % at the dose shown (toxicity tests: loss of growth or viability).

| structure | organism | strain | cell line | read by | measure | tested at | value |
|---|---|---|---|---|---|---|---|
| COC[C@H](N)C1CCN(c2c(F)cn3c(=O)c(C(=O)O)cc(C4CC4)c3c2C)C1 | Streptococcus pyogenes | EES61 |  |  | MIC |  | 0.002 µg/mL |
| C#CC[C@@H](C(=O)N[C@H](/C=C/C(=O)OCC)C[C@@H]1CCNC1=O)n1cccc(NC(=O)c2cc(C)on2)c1=O | Rhinovirus | Serotype 23 | H1-HELA | cytopathic effect / XTT | inhibition | 0.092 µM | 90% |
| O[C@H]1[C@@H](O)COC(n2cnc3cc(Cl)c(Cl)cc32)[C@@H]1O | Sindbis virus |  | HeLa | cytopathic effect | EC50 |  | >400 µg/mL |
| C=CCc1cc(C(=O)O)c(=O)n2cc(F)c(N3CC[C@H](N)C3)c(C)c12 | Streptococcus pyogenes | EES61 |  |  | MIC |  | 6.2 µg/mL |
| Cc1c(N2C[C@@H](F)[C@@H](C3(N)CC3)C2)c(F)c(N)c2c(=O)c(C(=O)O)cn([C@@H]3C[C@@H]3F)c12 | Haemophilus influenzae | 38 strains (ampicillin-susceptible) |  |  | MIC90 |  | 0.015 µg/mL |
| C=CCc1ccc(O)c(-c2ccc(O)c(CC=C)c2)c1 | Candida albicans | YL 363 |  | broth dilution | MIC |  | 128 µg/mL |
| NC1CCN(c2nc3c(cc2F)c(=O)c(C(=O)O)cn3-c2ccc(F)cc2F)C1 | Staphylococcus aureus | 25 strains (ofloxacin-resistant) |  |  | MIC50 |  | 32 µg/mL |
| OCCOC(CO)n1cnc2cc(Cl)c(Cl)cc21 | Reovirus | TYPE 1 | HeLa | cytopathic effect | EC50 |  | >200 µg/mL |
| C[C@H]1COc2c(N3CCN(C)CC3)c(F)cc3c(=O)c(C(=O)O)cn1c23 | Haemophilus influenzae | 38 strains (ampicillin-susceptible) |  |  | MIC50 |  | 0.015 µg/mL |
| Cc1c(N2CCCN2C)c(F)cn2c(=O)c(C(=O)O)cc(C3CC3)c12 | Streptococcus pyogenes | EES61 |  |  | MIC |  | 0.78 µg/mL |
| CO/N=C1\CN(c2nc3c(cc2F)c(=O)c(C(=O)O)cn3C2CC2)CC1CN | Haemophilus influenzae | 38 strains (ampicillin-susceptible) |  |  | MIC50 |  | ≤0.004 µg/mL |
| CO[C@@H]1C[C@@H](C[C@H]2CC[C@H](C)[C@H]([C@@H](C)C(=O)O)O2)O[C@]2(O[C@](C)([C@H]3CC[C@@](C)([C@@H]4O[C@@H]([C@H]5O[C@@](O)(CO)[C@H](C)C[C@@H]5C)C[C@@H]4C)O3)C[C@H]2C)[C@@H]1C | Toxoplasma gondii | RH |  | uracil uptake / radiometric | inhibition | 0.05 µg/mL | 100% |
| OC[C@H]1O[C@@H](n2cnc3cc(Cl)c(Cl)cc32)[C@@H](O)[C@@H]1O | Reovirus | TYPE 1 | HeLa | cytopathic effect | EC50 |  | >200 µg/mL |
| O=c1[nH]c(=O)n([C@@H]2O[C@H](CO)[C@@H](O)[C@@H]2O)cc1/C=C/Br | Varicella zoster virus | BVDU-resistant | HEL | plaque count | EC50 |  | >20 µg/mL |
| Cc1c(N2C[C@H]3OCC[C@@]3(CN)C2)c(F)cn2c(=O)c(C(=O)O)cc(C3CC3)c12 | Streptococcus pyogenes | EES61 |  |  | MIC |  | 0.1 µg/mL |
| COc1c(O)cc2oc(-c3ccccc3)c(OC)c(=O)c2c1O | Saccharomyces cerevisiae |  |  |  | MIC |  | 250 µg/mL |
| OCCOC(CCO)n1cnc2cc(Cl)c(Cl)cc21 | Reovirus | TYPE 1 | HeLa | cytopathic effect | EC50 |  | >100 µg/mL |
| C[C@@H](O)[C@H]1C(=O)N2C(C(=O)O)=C(SCCN=CN)C[C@H]12 | Staphylococcus aureus | 25 strains (methicillin-susceptible) |  |  | MIC90 |  | 0.06 µg/mL |
| C=Cc1cc(C(=O)O)c(=O)n2cc(F)c(N3CC[C@H](N)C3)c(C)c12 | Streptococcus pyogenes | EES61 |  |  | MIC |  | 3.1 µg/mL |
| C[C@@H]1CN(c2c(F)c(N)c3c(=O)c(C(=O)O)cn(C4CC4)c3c2F)C[C@H](C)N1 | Staphylococcus aureus | 25 strains (methicillin-susceptible) |  |  | MIC50 |  | 0.12 µg/mL |
| Cc1c(N2CC[C@H](N)C2)c(F)cn2c(=O)c(C(=O)NCC(=O)O)cc(C3CC3)c12 | Streptococcus pyogenes | EES61 |  |  | MIC |  | 50 µg/mL |
| COc1cc2oc(-c3ccccc3)c(OC)c(=O)c2c(OC)c1OC | Saccharomyces cerevisiae |  |  |  | MIC |  | 1000 µg/mL |
| CC(C)[Si]1(C(C)C)OC[C@H]2O[C@@H](n3cnc4cc(Cl)c(Cl)cc43)[C@@H](O)[C@H]2O[Si](C(C)C)(C(C)C)O1 | Parainfluenza virus | TYPE 3 | HeLa | cytopathic effect | EC50 |  | >10 µg/mL |
| CO[C@@H]1[C@@H](O[C@@H]2O[C@H](C)[C@@H](O[C@H]3C[C@@](C)(O)[C@@H](O)[C@H](C)O3)[C@H](N(C)C)[C@H]2O)[C@@H](CC=O)C[C@@H](C)[C@@H](O[C@H]2CC[C@H](N(C)C)[C@H](C)O2)/C=C/C=C/C[C@@H](C)OC(=O)C[C@H]1O | Toxoplasma gondii |  |  |  | EC50 |  | >1 µg/mL |
| Nc1nc2c(ncn2CCC(CO)CO)c(=O)[nH]1 | Varicella zoster virus | PCV-resistant/A | HEL | plaque count | EC50 |  | 3.16 µg/mL |
| Clc1cc2nc[nH]c2cc1Cl | Sindbis virus |  | HeLa | cytopathic effect | EC50 |  | >10 µg/mL |
| CC(=O)NC[C@H]1CN(c2ccc(N3CCOCC3)c(F)c2)C(=O)O1 | Staphylococcus aureus | 25 strains (methicillin-susceptible) |  |  | MIC90 |  | 2 µg/mL |
| O=C(O)P(=O)(O)O | Varicella zoster virus | BVaraU-resistant | HEL | plaque count | EC50 |  | 12.6 µg/mL |
| CC[C@H](N)C1CCN(c2c(F)cn3c(=O)c(C(=O)O)cc(C4CC4)c3c2C)C1 | Streptococcus pyogenes | EES61 |  |  | MIC |  | 0.002 µg/mL |
| Nc1ncnc2c1ncn2C[C@@H](CO)OCP(=O)(O)O | Varicella zoster virus | PFA-resistant/A | HEL | plaque count | EC50 |  | 0.048 µg/mL |
| O[C@@H]1[C@@H](OCc2ccccc2)[C@@H](COCc2ccccc2)O[C@H]1n1cnc2cc(Cl)c(Cl)cc21 | Sindbis virus |  | HeLa | cytopathic effect | EC50 |  | >10 µg/mL |